Single amino acid changes in Zika NS2B-NS3 and viral growth

Data from the supplement of Ni et al. 2025, doi:10.1038/s41467-025-63602-z.

Chain scanned (Zika virus MR766; NS2B from position 2 to 131, then the start of NS3):
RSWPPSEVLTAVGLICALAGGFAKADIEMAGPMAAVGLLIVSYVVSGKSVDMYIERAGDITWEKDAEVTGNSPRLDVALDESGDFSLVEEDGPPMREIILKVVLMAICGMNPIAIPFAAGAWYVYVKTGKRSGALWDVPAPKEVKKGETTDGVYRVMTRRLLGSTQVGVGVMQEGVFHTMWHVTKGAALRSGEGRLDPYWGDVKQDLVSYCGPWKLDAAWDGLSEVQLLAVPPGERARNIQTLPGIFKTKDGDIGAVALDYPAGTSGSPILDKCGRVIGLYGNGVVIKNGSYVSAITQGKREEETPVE

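Libraries of single mutants were passaged as virus pools on Huh-7.5 cells. The effect is the change in frequency of a mutant, normalised to wild type, as a mean of three replicate libraries (two for positions 207-308). The study looked for pockets that tolerate few changes, as a guide for inhibitor design.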

Scale: log2 effect, wild type = 0; the lower, the more harmful to the virus.
Each entry names the wild-type residue, its position and the residue put in its place.
Stop codons (*) centre on -7 and mark the level of dead virus.
Values above 0 are not proof of better growth: six high scorers were tested one by one, five grew less well than wild type and one about as well.
Positions 1-103, 104-206 and 207-308 were made and measured as separate libraries.
The authors count -1 or higher as tolerated. Position 1 is the last residue of NS2A.

Y43K read -5.98.
A219D read -1.29.
W3F read -0.59.
V124Q read -5.75.
T249S read -7.00.
V126Y read -2.35.
V41R read -6.81.
T149* read -5.09.
P5R read -3.81.
G147M read -4.09.
A66R read -7.64.
E81C read -5.19.
A25R read -4.15.
R1E read -7.81.
V171I read -3.30.
L39T read -2.40.
T10* read -6.46.
D59H read -3.11.
K288D read -4.87.
D91R read -5.80.
K146H read -1.43.
F177* read -6.47.
L104E read -5.98.
S209F read -5.67.
V12* read -7.68.
M172K read -6.30.
Y43R read -7.19.
P198K read -6.55.
E89W read -5.13.
E304S read -0.38.
Y281H read -5.14.
G186V read -6.31.
M52S read -7.61.
G299M read -5.08.
K145P read -0.99.
D59A read -3.28.
K101A read -6.92.
V183E read -5.03.
F85H read -4.94.
R96F read -4.50.
P233C read -5.40.
V169* read -7.39.
M52Q read -6.66.
V167G read -7.26.
E304K read -3.13.
R155W read -6.06.
F85T read -6.50.
D251M read -4.98.
S291G read -2.50.
T158L read -5.39.
L229C read -3.20.
K145W read -3.64.
L229M read -0.14.
E148T read -0.80.
L189N read -4.06.
L271R read -5.60.
V45L read -5.07.
M180G read -5.50.
G152P read -6.55.
W62Q read -6.81.
V126D read -5.02.
I60D read -6.40.
A78H read 0.38.
L9I read -3.44.
I246H read -4.71.

Excerpt, the final 8 entries:

change,effect (log2)
M180G,-5.50
G152P,-6.55
W62Q,-6.81
V126D,-5.02
I60D,-6.40
A78H,0.38
L9I,-3.44
I246H,-4.71